Data as given in PubChem BioAssay AID1259414 (Drosophila RNAi Screening Center, 2018)

Purpose: 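Host factors increasing or decreasing Wolbachia levels in cultured fly cells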 (primary screen)
System: Drosophila JW18 cells infected with Wolbachia
Reagent: long dsRNA against Drosophila genes, 0.25 µg dsRNA per well of a 384-well plate
Duration: 5 days
Conditions: cells persistently infected with Wolbachia before knock-down; no added drug
Detection: 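Automated imaging of bacterial rRNA staining divided by host cell count, reported as plate-normalised robust z-score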
Scale: Wolbachia per cell robust z: higher = more Wolbachia per host cell than the plate typical
Hit rule: 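Active if absolute robust z reaches 1.5 in two or more of three replicates, leaving out multi- or no-target dsRNAs, genes unexpressed in JW18 and A1 wells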
The deposit covers about 24,000 reagents; below is a random part of those with a known target gene and a result. Over the whole deposit, about 1,210 (5%) were called active. 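Inactive calls also include excluded dsRNAs with several or no targets, genes unexpressed in JW18, and well A1, regardless of score.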 Unmarked entries are inactive. Reagents against one gene are numbered here. Names joined by + are all predicted targets of the reagent.

gene knocked down	reagent	Wolbachia per cell robust z, rep 1	Wolbachia per cell robust z, rep 2	Wolbachia per cell robust z, rep 3
CG13511 (GeneID 37597)	1	0.694	-5.26	0.0339
CG13511 (GeneID 37597)	2	1.19	1.53	0.958
CG15118 (GeneID 37199)	1	0.302	0.61	-0.0675
CG1024 (GeneID 40789)	1	1.7	-0.17	0.158
CG13692 (GeneID 33216)	1	-0.236	1.76	-1.13
CG13692 (GeneID 33216)	2	0.122	-0.132	-1.45
CR43105 (GeneID 12798480)	1	-1.15	0.806	0.0771
CG30082 (GeneID 246443)	1	-0.162	0.27	0.128
CG7368 (GeneID 39301)	1	1.91	2.84	0.776
CG7368 (GeneID 39301)	2	0.281	0.212	-4.7
CG7368 (GeneID 39301)	3	-2.1	-0.138	-1.08
CG31823 (GeneID 326163)	1	0.165	0.916	-0.0115
CG13481 (GeneID 39579)	1	1.07	-0.283	0.183
CG13481 (GeneID 39579)	2	0.912	0.384	-0.0223
mRpL48 (GeneID 33348)	1	-1.79	-0.492	-1.22
magu (GeneID 36048)	1	-5.83 (active)	-1.82	-6.05
CG11892 (GeneID 43053)	1	-2.25	0.563	2.5
CG30495 (GeneID 246651)	1	-0.687	-0.426	-0.784
CG30495 (GeneID 246651)	2	1.13	0.681	-0.722
Atg10 (GeneID 50253)	1	0.232	-0.366	-0.188
nrv2 (GeneID 33953)	1	0.858	0.327	-1.45
nrv2 (GeneID 33953)	2	-6.67	-0.822	-0.417
nrv2 (GeneID 33953)	3	-2.85	-0.407	0.383
lncRNA:CR41601 (GeneID 5740627)	1	-0.624	-1.58	-0.912
Pcf11 (GeneID 36658)	1	1.97 (active)	3.36	3.29
CG5968 (GeneID 34986)	1	-0.219	-2.98	-0.364
CG2909 (GeneID 31958)	1	0.0158	-3.08	-1.19
Muc14A (GeneID 318097)	1	0.668	-1.39	1.18
Muc14A (GeneID 318097)	2	-1.55	-5.66	0.14
CG30460 (GeneID 36924)	1	0.559	-0.109	-0.404
CG30460 (GeneID 36924)	2	-0.571	-0.69	-0.166
Nepl16 (GeneID 43014)	1	0.481	-1.3	0.137
CG16868 (GeneID 37298)	1	-1.12	0.37	-0.573
Sec24AB (GeneID 36025)	1	-5.39	0.193	-0.448
Sec24AB (GeneID 36025)	2	-4.09	1.13	-0.857
TpnC73F (GeneID 39916)	1	-3.03	-0.121	-1.62
CG4935 (GeneID 34955)	1	0.0225	0.575	0.982
Neurochondrin (GeneID 40796)	1	0.829	0.407	0.577
Neurochondrin (GeneID 40796)	2	-0.262	-0.327	1.79
HP1c (GeneID 42696)	1	-3.86	0.313	-0.545
HP1c (GeneID 42696)	2	-0.0631	0.554	-0.44
CG9304 (GeneID 37500)	1	0.356 (active)	-1.57	-3.75
CG9304 (GeneID 37500)	2	-3.46 (active)	0.462	-1.65
CG14492 (GeneID 37045)	1	-2.65	0.525	-0.282
CG14036 (GeneID 33735)	1	-0.635	0.162	0.639
Srpk79D (GeneID 40461)	1	0.467	0.979	0.814
Srpk79D (GeneID 40461)	2	-0.326	-0.42	0.402
Srpk79D (GeneID 40461)	3	0.548	0.589	-3.63
CG7966 (GeneID 41610)	1	-1.03	-0.297	-0.209
CG10949 (GeneID 35310)	1	0.0876	-1.32	-0.103
CG10949 (GeneID 35310)	2	0.811	1.13	0.164
CG32365 (GeneID 38876)	1	1.01	-0.412	-0.386
CCHa1-R (GeneID 37004)	1	-1.15	0.566	0.444
CCHa1-R (GeneID 37004)	2	-0.288	-0.656	-1.41
CG31368 (GeneID 41437)	1	0.806	1.54	0.0619
CG31368 (GeneID 41437)	2	-2.99 (active)	-0.809	-7.81
l(3)80Fj (GeneID 3355040)	1	-1.51	0.95	0.738
Cep135 (GeneID 39647)	1	0.26	-0.788	-0.363
Cep135 (GeneID 39647)	2	-1.39	-0.794	-0.437
CG13566 (GeneID 37813)	1	-0.0322	-2.35	-0.078
CG13566 (GeneID 37813)	2	0.154	-1.02	-0.58
Cpr66Cb (GeneID 38940)	1	-0.171	0.302	1.44
CG8407 (GeneID 36303)	1	-0.14	0.131	1.15
Jhbp4 (GeneID 41948)	1	0.543	-1.19	-0.577
Orc3 + CG34315	1	0.829	0.163	0.42
Orc3 + CG34315	2	-0.978	-0.652	0.137
trsn (GeneID 36110)	1	0.273	-0.177	0.132
CG34288 (GeneID 5740644)	1	-0.644	-0.839	0.502

7 of these entries in another layout:
CR43105 (GeneID 12798480) → Wolbachia per cell robust z, rep 1: -1.15; Wolbachia per cell robust z, rep 2: 0.806; Wolbachia per cell robust z, rep 3: 0.0771
CG30082 (GeneID 246443) → Wolbachia per cell robust z, rep 1: -0.162; Wolbachia per cell robust z, rep 2: 0.27; Wolbachia per cell robust z, rep 3: 0.128
CG7368 (GeneID 39301) #1 → Wolbachia per cell robust z, rep 1: 1.91; Wolbachia per cell robust z, rep 2: 2.84; Wolbachia per cell robust z, rep 3: 0.776
CG7368 (GeneID 39301) #2 → Wolbachia per cell robust z, rep 1: 0.281; Wolbachia per cell robust z, rep 2: 0.212; Wolbachia per cell robust z, rep 3: -4.7
CG7368 (GeneID 39301) #3 → Wolbachia per cell robust z, rep 1: -2.1; Wolbachia per cell robust z, rep 2: -0.138; Wolbachia per cell robust z, rep 3: -1.08
CG31823 (GeneID 326163) → Wolbachia per cell robust z, rep 1: 0.165; Wolbachia per cell robust z, rep 2: 0.916; Wolbachia per cell robust z, rep 3: -0.0115
CG13481 (GeneID 39579) #1 → Wolbachia per cell robust z, rep 1: 1.07; Wolbachia per cell robust z, rep 2: -0.283; Wolbachia per cell robust z, rep 3: 0.183
